Test results taken from US20240026278A1, “BLOOD CELL LYSING AGENT FOR ISOLATING BACTERIA FROM BLOOD CULTURE” (Becton, Dickinson and Company, priority 2020, published 2024).
“Also recorded” adds a separate entry of the source.

Test system: Staphylococcus epidermidis
Experiment: MALDI scores for Staphylococcus epidermidis isolated from positive blood cultures using different lysing agents
Conditions: S. epidermidis isolated from positive blood cultures, lysing agent at 0.52% (w/w)

Nonoxynol-9 [SDA]
MALDI identification: correct identification
MALDI score (acceptance score >= 1.8 Sepsityper database, 2.0 standard database): high MALDI scores; also recorded: higher MALDI score
